Values quoted from earlier work in PMC10818719 (Viruses, 2023).

Tested on: bovine viral diarrhea virus (BVDV)
Details: cited from earlier work

Row | Substance | antiviral activity with PDI toward BVDV
1 | octa-methylpyridyloxy-substituted Ga phthalocyanine [Ga8] | Virucidal and irradiation effects
2 | tetra-methylpyridyloxy-substituted Ga phthalocyanine [Ga4] | remarkable PDI
